Assay results published in US20120065103A1, “Prolyl Endopeptidase Probes” (priority 2010, published 2012).

System: Aspergillus fumigatus infected and uninfected guinea pig broncheoaveolar lavage fluid
Assay: Screening probes against Aspergillus fumigatus infected and uninfected guinea pig BALF (Table 2)
Type: biochemical
Details: for Specificity: negative = fold change less than 3; for Sensitivity: positive = fold change 3 or greater
Text: Methods: Guinea pig inhalation model comprises neutropenia by cortisone acetate and cyclophosphamide (days −2 and +3), 1.2×10^8 conidia/mL nebulized AF in inhalation chamber, and serum and BALF obtained at predetermined time points; Vallor et al. Antimicrob. Ag. Chemother. 2008, 52.
Table 2 Legend. Variable region (Xaa—Yaa—Zaa) of the top 6 peptide probes are all listed in single amino acid code; AF293 and CEA10 are the two strains of Aspergillus fumigatus infected guinea pig BALF samples screened in this study.
N stands for number of guinea pig BALF samples screened against the given peptide probe. Guinea pig infected and uninfected samples with very low background (t=0 hour) and end point values (t=6 hour) (i.e., no greater than 100 units difference between t=0 hour and t=6 hour) were not selected for the statistical calculations.
Mean fold change values is the average of fluorescence fold change calculated for each guinea pig sample screened against respective peptide probe. Fluorescence fold change values are calculated according to the formula:
Fold Change=Fluorescence measured at time t=6 hour/Fluorescence measured at time t=0 hour.
* Fold change values for these peptide probes were calculated at time t=3 hour as the end point value.
SD corresponds to standard deviation calculated for the given probe screened against the respective BALF sample.
Percentage fluorescence efficiency (% FE) is calculated for each probe as follows, % FE=100 * [(Fold changeInfected BALF-Fold changeUninfected BALF)/Fold changeuninfected BALF] Fold change values are all the mean fold change values.
P values are calculated with two tailed student t-test with two sample unequal variance for each peptide probe screened against respective infected and uninfected BALF samples. […]

[1] = strain AF293, end point t=3 hour
[2] = strain CEA10, end point t=3 hour

| Substance | Specificity (strain AF293, t=6 hour) | Sensitivity (strain AF293, t=6 hour) | Specificity (strain CEA10, t=6 hour) | Sensitivity (strain CEA10, t=6 hour) | Specificity [1] | Sensitivity [1] | Specificity [2] | Sensitivity [2] |
| --- | --- | --- | --- | --- | --- | --- | --- | --- |
| MeOCGly-GGPFPGG Dap(DNP)KK-NH2 | 0.91 | 0.60 | 0.75 | 0.80 | – | – | – | – |
| MeOCGly-GGPHPGG Dap(DNP)KK-NH2 | 0.91 | 0.41 | 0.55 | 0.80 | – | – | – | – |
| MeOCGly-GGPNPGG Dap(DNP)KK-NH2 | – | – | – | – | 0.97 | 0.69 | 0.42 | 0.95 |
| MeOCGly-GGPNPNPGG Dap(DNP)KK-NH2 | 0.68 | 0.75 | 0.40 | 0.83 | – | – | – | – |
| MeOCGly-GGPSPGG Dap(DNP)KK-NH2 | 0.64 | 0.75 | 0.30 | 0.91 | – | – | – | – |
